Taken from: PubChem BioAssay AID624099 (ICCB-Longwood, 2012)
The deposit covers about 21,000 reagents; below is a part drawn at random. Of all reagents, 497 (2.4%) got an active call. 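Higher z means weaker E2 silencing; only reporter increases were scored, and knock-downs that hurt cell survival may mask genuine repressor factors.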 Unmarked entries are inactive. Reagents against one gene are numbered here. Reagent sequences are not shown.

Purpose: 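Host factors E2 relies on to silence an HPV18 LCR reporter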 (primary screen)
System: human C33A cervical carcinoma cells (HPV-negative) stably expressing BPV1 E2 and an HPV18 LCR luciferase reporter
Reagents: siRNA pool against human genes, 40 nM
Time to read-out: 72 h
Measured: 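HPV18 LCR reporter light per well, converted to plate-wise z-scores that exclude control wells, and averaged over triplicate plates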
Reading the numbers: mean z-score and z-score: higher = stronger reporter signal, weaker E2 silencing
Active means: 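Mean z ≥ 2 together with z ≥ 2 in two or more of the three replicates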

target | reagent no. | mean z-score | z-score, replicate A | z-score, replicate B | z-score, replicate C
FAM161B | 1 | -0.43 | -0.4 | -0.84 | -0.06
NABP2 | 1 | 0.34 | 0.31 | 0.22 | 0.49
HBG2 | 1 | -1.7 | -1.74 | -1.68 | -1.7
VWDE | 1 | 0.6 | 0.23 | 0.74 | 0.82
OR51G1 | 1 | 0.43 | 0.36 | 0.16 | 0.75
TSPAN2 | 1 | -0.92 | -0.96 | -0.88 | -0.9
CCDC61 | 1 | 1.14 | 1.2 | 1.21 | 1.01
TCEA1 | 1 | -1.22 | -1.17 | -1.27 | -1.2
C1QTNF12 | 1 | 0.77 | 1.14 | 0.1 | 1.06
PSMD10 | 1 | 0.5 | -0.32 | 1.12 | 0.71
TCTN3 | 1 | 0.73 | 0.58 | 0.78 | 0.82
MARK2 | 1 | -2.6 | -0.96 | -6.03 | -0.81
GMPR | 1 | 0.18 | 0.35 | 0.33 | -0.15
PCDHGB2 | 1 | -0.11 | -0.05 | -0.18 | -0.11
CHCHD10 | 1 | 1.75 | 1.95 | 1.39 | 1.92
LOC441243 (retired record) | 1 | 1.67 | 1.61 | 1.73 | 1.67
BPIFB6 | 1 | -0.96 | -0.88 | -0.92 | -1.07
KAT2B | 1 | 0.25 | 0.13 | 0.36 | 0.25
AGTR2 | 1 | 1.22 | 0.92 | 1.49 | 1.26
ADAM30 | 1 | 0.47 | 0.77 | 0.35 | 0.29
LOC401454 (retired record) | 1 | -0.75 | -0.59 | -0.61 | -1.04
RASSF4 | 1 | -0.05 | 0.05 | -0.14 | -0.06
LOC105377782 | 1 | 0.25 | 0.48 | 0.43 | -0.17
NCOA1 | 1 | 0.52 | 0.52 | 0.49 | 0.54
PKNOX2 | 1 | 1.24 | 1.16 | 1.31 | 1.26
SEC61A2 | 1 | 1.45 | 1.58 | 1.45 | 1.33
EXD3 | 1 | 0.34 | 0.22 | 0.07 | 0.73
MKNK1 | 1 | 0.07 | 0.12 | 0.47 | -0.39
BAIAP3 | 1 | 0.83 | 0.37 | 0.89 | 1.23
CDC25C | 1 | 0.24 | 0.4 | 0.15 | 0.17
CDH5 | 1 | 0.03 | 0.12 | -0.12 | 0.08
CAST | 1 | -0.34 | -0.29 | -0.4 | -0.32
CAST | 2 | 0.27 | 0.31 | 0.52 | -0.02
IMMP1L | 1 | 1.7 | 2.12 | 1.29 | 1.69
ELP3 | 1 | 1.39 | 1.29 | 1.37 | 1.52
AMN1 | 1 | 0.69 | 0.81 | 0.9 | 0.35
COLEC12 | 1 | -0.44 | -0.27 | -0.57 | -0.5
SNORC | 1 | 1.31 | 1.52 | 1.41 | 1
FAM204A | 1 | 0.7 | 0.99 | 0.73 | 0.37
MAGOHB | 1 | -0.1 | 0.35 | 0.28 | -0.93
LOC389654 (retired record) | 1 | 2.14 (active) | 1.91 | 2.34 | 2.18
ARNT | 1 | 0.38 | 0.23 | 0.48 | 0.43
PMFBP1 | 1 | -0.23 | 0.08 | -0.33 | -0.45
CCDC178 | 1 | 1.24 | 1.12 | 1.16 | 1.44

Entries listed so far called active (1):
target | reagent no. | mean z-score | z-score, replicate A | z-score, replicate B | z-score, replicate C
LOC389654 (retired record) | 1 | 2.14 (active) | 1.91 | 2.34 | 2.18

Additional reagents follow:
target | reagent no. | mean z-score | z-score, replicate A | z-score, replicate B | z-score, replicate C
GPATCH2 | 1 | 0.42 | 0.4 | 0.69 | 0.17
ZFP36 | 1 | 0.05 | -0.01 | 0.13 | 0.02
PIK3AP1 | 1 | -0.38 | -0.46 | -0.4 | -0.28
HOXB13 | 1 | 0.39 | 0.43 | 0.38 | 0.36
KRT32 | 1 | 0.61 | 0.29 | 0.79 | 0.76
FHIT | 1 | -1.11 | -1.07 | -1.16 | -1.1
OGFR | 1 | 0.41 | 0.46 | 0.28 | 0.48
DVL1 | 1 | 0.39 | 0.19 | 0.37 | 0.6
TRAPPC12 | 1 | 0.66 | 0.88 | 0.37 | 0.73
SRSF2 | 1 | 0.02 | -0.14 | 0.21 | 0.01
PPM1H | 1 | -0.06 | 0.12 | -0.09 | -0.2
PPP1R1A | 1 | -1.49 | -1.07 | -1.61 | -1.78
CA8 | 1 | -0.39 | 0.29 | -1.33 | -0.13
TF | 1 | 1.31 | 1.43 | 0.8 | 1.69
ABCB4 | 1 | 0.95 | 0.75 | 0.9 | 1.21
VCPKMT | 1 | 0.05 | -0.05 | 0.13 | 0.09
HLA-F | 1 | 0.14 | 0.35 | 0 | 0.06
PYHIN1 | 1 | 0.31 | -0.05 | 0.91 | 0.07
LOC391403 (retired record) | 1 | -0.78 | -0.74 | -0.39 | -1.21
INS | 1 | 0.69 | 0.71 | 0.74 | 0.62
GJC2 | 1 | 1.32 | 1.35 | 1.37 | 1.23
NUMA1 | 1 | 0.92 | 0.56 | 0.66 | 1.53
C3orf36 | 1 | -0.86 | -1 | -0.74 | -0.83
ZCCHC2 | 1 | 0.66 | 0.84 | 0.66 | 0.48
ZCCHC2 | 2 | -0.35 | -0.88 | 0.04 | -0.21
IFNL3 | 1 | 1.36 | 2.39 | 0.91 | 0.77
PPP2R5A | 1 | 0.01 | -0.03 | 0.2 | -0.14
SRRM2 | 1 | 0.83 | 0.95 | 0.87 | 0.67
TLDC2 | 1 | -1.19 | -1.4 | -1.05 | -1.1
